The assay concerns the target influenza hemagglutinin (HA) from H1N1 A/California/07/2009 (Influenza A virus H1N1 …, UniProt C3W5X2, biotinylated). The experiment in a line: BLI. As to conditions: both partners purified.

B1: 5J8 Fab VL D50Y (Fab, V domains shown)
VH: EVQLVESGPGLVKPSDILSLTCAVSGYSISSNYYWGWIRQPPGKGLEWIGSIYHSGSTYYKPSLESRLGISVDTSKNQFSLKLSFVSAADTAVYYCARHVRSGYPDTAYYFDKWGQGTLVTVSS
VL: SYVLTQPPSVSVAPGETARISCGGNNIGTKVLHWYQQTPGQAPVLVVYYDSDRPSGIPERFSGSNSGNTATLTISRVEVGDEADYYCQVWDISTDQAVFGGGTKLTVL
As to B1, the binding result is reported as “no binding (tested: 300 nM)”.

These data come from doi:10.1101/2023.06.06.543969 (bioRxiv, 2023).
